Data on 21 substances can be found in patent US10723727B2 (priority 2016, dated 2020).

A short description of the first data set: general procedure: solution-phase peptide synthesis; HATU/DIPEA; TPTU/DIPEA; pentafluorophenyl esters. The settings on record: conjugation step, TFA salt (B1, B2, B3, B6).
As for “1,2-dimethyl-D-prolyl-N-{(1R,3R)-1-(acetyloxy)-1-[4-({(2R,4S)-4-carboxy-1-[4-({N-[6-(2,5-dioxo-2,5-dihydro-1H-pyrrol-1-yl)hexanoyl]glycyl}amino)phenyl]pentan-2-yl}carbamoyl)-1,3-thiazol-2-yl]-4-methyl pentan-3-yl}-N-methyl-L-isoleucinamide”, the conjugation yield is given as 26%.
Same read-out and setting: as for “1,2-dimethyl-D-prolyl-N-{(1R,3R)-1-[4-({(2R,4S)-4-carboxy-1-[4-({N-[6-(2,5-dioxo-2,5-dihydro-1H-pyrrol-1-yl)hexanoyl]glycyl}amino)phenyl]pentan-2-yl}carbamoyl)-1,3-thiazol-2-yl]-1-[(ethylcarbamoyl)oxy]-4-methylpentan-3-yl}-N-methyl-L-isoleuc”, the figure is 52%.
Still for that read-out and setting: as for “1,2-dimethyl-D-prolyl-N-{(1R,3R)-1-[4-({(2R,4S)-4-carboxy-1-[4-({N-[6-(2,5-dioxo-2,5-dihydro-1H-pyrrol-1-yl)hexanoyl]glycyl}amino)phenyl]pentan-2-yl}carbamoyl)-1,3-thiazol-2-yl]-1-hydroxy-4-methylpentan-3-yl}-N-methyl-L-isoleucinamide”, the figure is 26%.

Still in this data set, the particulars now being: coupling step, TFA salt.
As for “2-methyl-D-prolyl-N-[(1R,3R)-1-(acetyloxy)-1-(4-{[(2R,4S)-5-methoxy-4-methyl-5-oxo-1-phenylpentan-2-yl]carbamoyl}-1,3-thiazol-2-yl)-4-methylpentan-3-yl]-N-methyl-L-isoleucinamide”, the step yield was 34%.
As to “N-[(1R,3R)-1-(acetyloxy)-4-methyl-1-(4-{[(2S)-1-phenyl-4-phosphonopentan-2-yl]carbamoyl}-1,3-thiazol-2-yl)pentan-3-yl]-N-methyl-N˜2˜-{[(2R)-1-methylpiperidin-2-yl]carbonyl}-L-isoleucinamide”, the step yield worked out at 6.1%.

The data set is the same for the next values; noted with them: coupling step, TFA salt (B1, B2, B3, B6).
“1,2-dimethyl-D-prolyl-N-[(1R,3R)-1-(acetyloxy)-1-(4-{[(2R,4S)-1-(4-{[N-(tert-butoxycarbonyl)-L-valyl-L-alanyl]amino}phenyl)-4-carboxypentan-2-yl]carbamoyl}-1,3-thiazol-2-yl)-4-methylpentan-3-yl]-N-methyl-L-isoleucinamide”: the step yield is 57%.
On the same count and under the same terms, as for “1,2-dimethyl-D-prolyl-N-[(1R,3R)-1-(acetyloxy)-1-(4-{[(2R,4S)-5-methoxy-4-methyl-5-oxo-1-phenylpentan-2-yl]carbamoyl}-1,3-thiazol-2-yl)-4-methylpentan-3-yl]-N-methyl-L-isoleucinamide”, the figure is 22%.
The same measure, in the same setting: as for “1,2-dimethyl-D-prolyl-N-[(1R,3R)-1-(acetylamino)-1-(4-{[(2R,4S)-5-methoxy-4-methyl-5-oxo-1-phenylpentan-2-yl]carbamoyl}-1,3-thiazol-2-yl)-4-methylpentan-3-yl]-N-methyl-L-isoleucinamide”, the figure is 60%; as for “2-methylalanyl-N-[(1R,3R)-1-(acetyloxy)-1-(4-{[(2R,4S)-5-methoxy-4-methyl-5-oxo-1-phenylpentan-2-yl]carbamoyl}-1,3-thiazol-2-yl)-4-methylpentan-3-yl]-N-methyl-L-isoleucinamide”, 31%; as for “methyl (2S,4R)-4-[({2-[(1R,3R)-1-(acetyloxy)-4-methyl-3-(methyl{N-[(9-methyl-9-azabicyclo[3.3.1]non-1-yl)carbonyl]-L-isoleucyl}amino)pentyl]-1,3-thiazol-4-yl}carbonyl)amino]-2-methyl-5-phenylpentanoate”, 65%.
The same measure, in the same setting: as for “3-{2-[(2-{(1R,3R)-1-(acetyloxy)-4-methyl-3-[methyl(N-{[(2R)-1-methylpiperidin-2-yl]carbonyl}-L-isoleucyl)amino]pentyl}-1,3-thiazol-4-yl)carbonyl]-1-benzylhydrazinyl}-2-methylpropanoic Acid”, the figure is 12%.
“methyl (2S,4R)-4-[({2-[(1R,3R)-1-(acetyloxy)-4-methyl-3-(methyl{N-[(2-methyl-2-azabicyclo[2.1.1]hex-1-yl)carbonyl]-L-isoleucyl}amino)pentyl]-1,3-thiazol-4-yl}carbonyl)amino]-2-methyl-5-phenylpentanoate”: the step yield is recorded as 67%.
The same measure, in the same setting: as for “ethyl (2S,4R)-4-{[(2-{(1R,3R)-1-(acetyloxy)-4-methyl-3-[methyl(N-{[(2R)-1-methylpiperidin-2-yl]carbonyl}-L-isoleucyl)amino]pentyl}-1,3-thiazol-4-yl)carbonyl]amino}-2-methyl-5-{4-[(pyridin-2-yldisulfanyl)methyl]phenyl}pentanoate”, the figure is 30%.
Still for that read-out and setting: as for “1,2-dimethyl-D-prolyl-N-[(1R,3R)-1-(acetyloxy)-1-(4-{[(2R,4S)-1-(4-aminophenyl)-4-carboxypentan-2-yl]carbamoyl}-1,3-thiazol-2-yl)-4-methylpentan-3-yl]-N-methyl-L-isoleucinamide”, the figure is 80%; as for “methyl (2S,4R)-4-[({2-[(1R,3R)-1-(acetyloxy)-4-methyl-3-(methyl{N-[(2-methyl-2-azabicyclo[3.1.1]hept-1-yl)carbonyl]-L-isoleucyl}amino)pentyl]-1,3-thiazol-4-yl}carbonyl)amino]-2-methyl-5-phenylpentanoate”, 65%.

The same data set, now with this note: coupling step, trifluoroacetate salt.
As for “methyl (2S,4R)-4-{[(2-{(1R,3R)-1-(acetyloxy)-3-[(N-{[1-(dimethylamino)cyclopentyl]carbonyl}-L-isoleucyl)(methyl)amino]-4-methylpentyl}-1,3-thiazol-4-yl)carbonyl]amino}-2-methyl-5-phenylpentanoate”, the step yield was determined as 76%.

Staying with this data set, now noted: late stage modification step, TFA salt (B1, B2, B3, B6).
For the substance “1,2-dimethyl-D-prolyl-N-[(1R,3R)-1-(acetyloxy)-1-(4-{[(2R,4S)-5-hydrazinyl-4-methyl-5-oxo-1-phenylpentan-2-yl]carbamoyl}-1,3-thiazol-2-yl)-4-methylpentan-3-yl]-N-methyl-L-isoleucinamide”, the step yield was determined as 83%.
The same measure, in the same setting: as for “N-(tert-butoxycarbonyl)-N-methyl-D-valyl-N-[(1R,3R)-1-(acetyloxy)-1-(4-{[(2R,4S)-4-carboxy-1-phenylpentan-2-yl]carbamoyl}-1,3-thiazol-2-yl)-4-methylpentan-3-yl]-N-methyl-L-isoleucinamide”, the figure is 100%; as for “1,2-dimethyl-D-prolyl-N-{(1R,3R)-1-[4-({(2R,4S)-4-carboxy-1-[4-(glycylamino)phenyl]pentan-2-yl}carbamoyl)-1,3-thiazol-2-yl]-1-[(ethylcarbamoyl)oxy]-4-methylpentan-3-yl}-N-methyl-L-isoleucinamide”, 62%.
Same read-out and setting: as for “N-methyl-D-valyl-N-[(1R,3R)-1-(acetyloxy)-1-(4-{[(2R,4S)-4-carboxy-1-phenylpentan-2-yl]carbamoyl}-1,3-thiazol-2-yl)-4-methylpentan-3-yl]-N-methyl-L-isoleucinamide”, the figure is 72%.
On the same count and under the same terms, as for “1,2-dimethyl-D-prolyl-N-[(1R,3R)-1-(acetyloxy)-1-(4-{[(2R,4S)-4-carboxy-1-phenylpentan-2-yl]carbamoyl}-1,3-thiazol-2-yl)-4-methylpentan-3-yl]-N-methyl-L-isoleucinamide”, the figure is 90%.
